Test system: HCoV-229E
Experiment: anti-HCoV-229E activity in Huh7 cells by cytopathic effect (CPE) assay
Format: cell-based, Human coronavirus HCoV-229E
Conditions: SI=TC50/EC50, HCoV-229E in Huh7 cells

Compound | SI
Cn1c(=O)c2c(nc(NCCO)n2Cc2ccc(F)cc2)n(C)c1=O [IMB-2-2, 7-(4-fluorobenzyl)-8-((2-hydroxyethyl)amino)-1,3-dimethyl-3,7-dihydro-1H-purine-2,6-dione] | >63.49
Cn1c(=O)c2c(nc(NCCO)n2Cc2cccc(Cl)c2)n(C)c1=O [IMB-2-5, 7-(3-chlorobenzyl)-8-((2-hydroxyethyl)amino)-1,3-dimethyl-3,7-dihydro-1H-purine-2,6-dione] | 150.38
Cn1c(=O)c2c(nc(NCCO)n2Cc2ccccc2Br)n(C)c1=O [IMB-2-6, 7-(2-bromobenzyl)-8-((2-hydroxyethyl)amino)-1,3-dimethyl-3,7-dihydro-1H-purine-2,6-dione] | >12.59
Cn1c(=O)c2c(nc(NCCO)n2Cc2ccc(OC(F)F)cc2)n(C)c1=O [IMB-2-8, 7-(4-(difluoromethoxy)benzyl)-8-((2-hydroxyethyl)amino)-1,3-dimethyl-3,7-dihydro-1H-purine-2,6-dione] | >80.97
Cn1c(=O)c2c(nc(NCCO)n2Cc2ccc(Cl)cc2)n(C)c1=O [IMB-2-14] | 139.86
COc1cccc(Cn2c(-n3ccnc3)nc3c2c(=O)n(C)c(=O)n3C)c1 [IMB-2-26, 8-(1H-imidazol-1-yl)-7-(3-methoxybenzyl)-1,3-dimethyl-3,7-dihydro-1H-purine-2,6-dione] | >5.20
COc1cccc(Cn2c(N3CCN(c4ccc(F)cc4)CC3)nc3c2c(=O)n(C)c(=O)n3C)c1 [IMB-2-31, 8-(4-(4-fluorophenyl)piperazin-1-yl)-7-(3-methoxybenzyl)-1,3-dimethyl-3,7-dihydro-1H-purine-2,6-dione] | >5.20
COC(=O)c1ccc2c(ccn2-c2nc3c(c(=O)n(C)c(=O)n3C)n2Cc2cccc(OC)c2)c1 [IMB-2-32, Methyl-1-(7-(3-methoxybenzyl)-1,3-dimethyl-2,6-dioxo-2,3,6,7-tetrahydro-1H-purin-8-yl)-1H-indole-5-carboxylate] | 9.00
COc1cccc(Cn2c(NCCO)nc3c2c(=O)n(Cc2ccc(F)cc2)c(=O)n3C)c1 [IMB-3-13, 1-(4-fluorobenzyl)-8-((2-hydroxyethyl)amino)-7-(3-methoxybenzyl)-3-methyl-3,7-dihydro-1H-purine-2,6-dione] | 2.68
COc1ccc(Cn2c(=O)c3c(nc(NCCO)n3Cc3cccc(OC)c3)n(C)c2=O)cc1 [IMB-3-15, 8-((2-hydroxyethyl)amino)-7-(3-methoxybenzyl)-1-(4-methoxybenzyl)-3-methyl-3,7-dihydro-1H-purine-2,6-dione] | >11.60
COc1cccc(Cn2c(NCCO)nc3c2c(=O)n(Cc2ccncc2)c(=O)n3C)c1 [IMB-3-16, 8-((2-hydroxyethyl)amino)-7-(3-methoxybenzyl)-3-methyl-1-(pyridin-4-ylmethyl)-3,7-dihydro-1H-purine-2,6-dione] | >5.20
Cn1c(=O)c2c(nc(NCCO)n2CC2CCOCC2)n(C)c1=O [IMB-3-19, ((2-hydroxyethyl)amino)-1,3-dimethyl-7-((tetrahydro-2H-pyran-4-yl)methyl)-3,7-dihydro-1H-purine-2,6-dione] | >106.38
CCn1c(=O)c2c(nc(Br)n2Cc2cccc(OC)c2)n(C)c1=O [IMB-3-30, 8-bromo-1-ethyl-7-(3-methoxybenzyl)-3-methyl-3,7-dihydro-1H-purine-2,6-dione] | 36.26
C#CCCn1c(=O)c2c(nc(NCCO)n2Cc2cccc(OC)c2)n(C)c1=O [IMB-3-45, 1-(but-3-yn-1-yl)-8-((2-hydroxyethyl)amino)-7-(3-methoxybenzyl)-3-methyl-3,7-dihydro-1H-purine-2,6-dione] | >3
CCn1c(=O)c2c(nc(NCCO)n2Cc2cccc(OC)c2)n(C)c1=O [IMB-3-46, ethyl-8-((2-hydroxyethyl)amino)-7-(3-methoxybenzyl)-3-methyl-3,7-dihydro-1H-purine-2,6-dione] | >1.29
CCCn1c(=O)c2c(nc(NCCO)n2Cc2cccc(OC)c2)n(C)c1=O [IMB-3-47, 8-((2-hydroxyethyl)amino)-7-(3-methoxybenzyl)-3-methyl-1-propyl-3,7-dihydro-1H-purine-2,6-dione] | >2.33
COc1cccc(Cn2c(NCCO)nc3c2c(=O)n(CCNC(=O)OC(C)(C)C)c(=O)n3C)c1 [IMB-3-57, tert-butyl(2-(8-((2-hydroxyethyl)amino)-7-(3-methoxybenzyl)-3-methyl-2,6-dioxo-2,3,6,7-tetrahydro-1H-purin-1-yl)ethyl)carbamate] | >3.00
COc1cccc(Cn2c(NCCO)nc3c2c(=O)n(CCCNC(=O)OC(C)(C)C)c(=O)n3C)c1 [IMB-3-58, tert-butyl(3-(8-((2-hydroxyethyl)amino)-7-(3-methoxybenzyl)-3-methyl-2,6-dioxo-2,3,6,7-tetrahydro-1H-purin-1-yl)propyl)carbamate] | >3.00
C=CCn1c(=O)c2c(nc(NCCO)n2Cc2cccc(OC)c2)n(C)c1=O [IMB-3-71, allyl-8-((2-hydroxyethyl)amino)-7-(3-methoxybenzyl)-3-methyl-3,7-dihydro-1H-purine-2,6-dione] | 3.00
C#CCn1c(=O)c2c(nc(NCCO)n2Cc2cccc(OC)c2)n(C)c1=O [IMB-3-72, 8-((2-hydroxyethyl)amino)-7-(3-methoxybenzyl)-3-methyl-1-(prop-2-yn-1-yl)-3,7-dihydro-1H-purine-2,6-dione] | >1.73
COc1cccc(Cn2c(NCCO)nc3c2c(=O)n(C)c(=O)n3Cc2ccccc2)c1 [IMB-3-81, benzyl-8-((2-hydroxyethyl)amino)-7-(3-methoxybenzyl)-1-methyl-3,7-dihydro-1H-purine-2,6-dione] | >2.08
CCOC(=O)c1cccc(Cn2c(NCCO)nc3c2c(=O)n(C)c(=O)n3C)c1 [IMB-4-6, ethyl3-((8-((2-hydroxyethyl)amino)-1,3-dimethyl-2,6-dioxo-1,2,3,6-tetrahydro-7H-purin-7-yl)methyl)benzoate] | 80.97
Cn1c(=O)c2c(nc(NCCO)n2Cc2ccsc2)n(C)c1=O [IMB-4-12, 8-((2-hydroxyethyl)amino)-1,3-dimethyl-7-(thiophen-3-ylmethyl)-3,7-dihydro-1H-purine-2,6-dione] | >50.13
COc1cccc(CCn2c(NCCO)nc3c2c(=O)n(C)c(=O)n3C)c1 [IMB-4-13, 8-((2-hydroxyethyl)amino)-7-(3-methoxyphenethyl)-1,3-dimethyl-3,7-dihydro-1H-purine-2,6-dione] | >12.98
Cc1ccccc1Cn1c(NCCO)nc2c1c(=O)n(C)c(=O)n2C [IMB-68, 8-((2-hydroxyethyl)amino)-1,3-dimethyl-7-(2-methylbenzyl)-3,7-dihydro-1H-purine-2,6-dione] | 139.86
Cn1c(=O)c2c(nc(NCCO)n2Cc2cccc([N+](=O)[O-])c2)n(C)c1=O [IMB-79] | >11.60
Cn1c(=O)c2c(nc(NCCO)n2Cc2cccc(Br)c2)n(C)c1=O [IMB-81, 7-(3-bromobenzyl)-8-((2-hydroxyethyl)amino)-1,3-dimethyl-3,7-dihydro-1H-purine-2,6-dione] | 50.07
Cn1c(=O)c2c(nc(NCCO)n2Cc2ccc(F)cc2F)n(C)c1=O [IMB-83, 7-(2,4-difluorobenzyl)-8-((2-hydroxyethyl)amino)-1,3-dimethyl-3,7-dihydro-1H-purine-2,6-dione] | >63.49
